{"source": "patent US11246857B2", "about": "“Anti-fungal inhibitors” (THE JOHNS HOPKINS UNIVERSITY, priority 2017, dated 2022)", "note": "Which two values form the index is not stated here."}
{"test_system": "human fibroblast", "assay": "Toxicity against human fibroblast", "assay_type": "cell-based", "conditions": "therapeutic index calculated from toxicity against human fibroblast and MIC", "description": "XlogP values are derived from PubChem and describe the lipophilicity of the molecule. The topological polar surface area (tPSA) is a metric for predicting cell penetration, with values <140 to be favorable. […] Toxicity against human fibroblast was used to calculate the therapeutic index TI."}
{"compound": "Cc1ccc(Nc2nc(-c3ccccn3)cs2)cc1", "note": "[Compound 64]", "TI": ">5.3"}
{"compound": "O=C(Nc1cccc(C(F)(F)F)c1)c1cc(Cl)ccc1O", "note": "[Compound 155]", "TI": 0.02}
{"compound": "Cc1ccc2cc3c(N)c4c(C)ccc(C)c4nc3nc2c1", "note": "[Compound 253]", "TI": 0.5}
{"compound": "Cc1ccc2c(c1)c1cc(C)ccc1n2CC(O)CNC1CCCCC1", "note": "(stereo not shown) [Compound 380]", "TI": 2.6}
